According to PubChem BioAssay AID1259311 (ICCB-Longwood Screening Facility, Harvard Medical School, 2017):
The entries are a selection whose mix differs from that of the whole data set. The source made the active and inactive calls. No stated cut-off is given here; in the data, active means inhibition above about 85%; inactive means the rest.

Test: growth inhibition of S. aureus RN4220, primary screen, OD600 (AID 1259311);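 further: plate controls were untreated cells for no effect and reference antibiotic for full effect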
Conditions: OD600, 16 h, active compounds read high
With `O=[N+]([O-])c1ccc(O)c(C=NNc2ccc([N+](=O)[O-])cc2[N+](=O)[O-])c1` the inhibition was active: 99.1%. With `O=c1c2cc([N+](=O)[O-])ccc2[nH]c2c([N+](=O)[O-])cc([N+](=O)[O-])cc12` the inhibition was active: 99.3%.
